# PMC12345230, “Sugar phosphate-mediated inhibition of peptidoglycan precursor synthesis” (mBio, 2025)
# Protein sequences, listed by entry. Tags and fused reporters are not part of them. Lines headed by an entry give the natural chain unless they say otherwise; changes in a name come on top.
# UniProt Q9KNH7: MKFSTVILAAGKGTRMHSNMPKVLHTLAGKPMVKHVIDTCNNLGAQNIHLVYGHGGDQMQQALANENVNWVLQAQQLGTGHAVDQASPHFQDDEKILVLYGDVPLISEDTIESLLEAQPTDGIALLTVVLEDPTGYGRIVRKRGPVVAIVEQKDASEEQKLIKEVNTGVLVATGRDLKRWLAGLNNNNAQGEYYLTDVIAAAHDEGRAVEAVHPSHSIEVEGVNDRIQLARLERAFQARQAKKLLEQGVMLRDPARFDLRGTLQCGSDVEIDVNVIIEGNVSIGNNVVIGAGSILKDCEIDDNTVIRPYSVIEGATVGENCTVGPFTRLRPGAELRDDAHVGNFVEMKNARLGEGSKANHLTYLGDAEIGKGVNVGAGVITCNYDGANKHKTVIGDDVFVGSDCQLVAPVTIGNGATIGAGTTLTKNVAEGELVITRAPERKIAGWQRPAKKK
# Target: GlmU (GlmU VC, vc2762) (Vibrio cholerae, UniProt Q9KNH7)
# Assay: LC-MS of UDP-GlcNAc and GlcNAc-1P formed
# Format: biochemical
# Details: 5 mM GlcN-1P, 5 mM UTP, 5 mM acetyl-CoA, 2 µM GlmU, MgCl2, Tris-HCl pH 7.5, 30 °C, 30 min; G1P 0-250 mM; acetyltransferase site, likely competitive with GlcN-1P
smiles,measurement,value
"O=P(O)(O)O[C@H]1O[C@H](CO)[C@@H](O)[C@H](O)[C@H]1O [G1P, glucose-1-phosphate]",LC-MS of UDP-GlcNAc and GlcNAc-1P formed,"increasing concentrations of G1P, but not G6P"
